Compound potency records, mixed from different reports. Data source: NIAID ChemDB in PubChem.

All rows: growth or infection tests; agent: Candida albicans

Rows are shuffled and stem from different studies.

SMILES | strain | measure | method | value
C[C@@H](n1ccnn1)[C@](O)(Cn1cncn1)c1ccc(F)cc1F | TA | MIC | - | 100 µg/mL
CC1(C)N=C(N)N=C(N)N1OCCCCCCCCCCCCON1C(N)=NC(N)=NC1(C)C | - | MIC | - | 30 µg/mL
O=[N+]([O-])c1ccc(/C=N/NC(=S)N2CCOCC2)o1 | - | MIC | - | 80 µg/mL
Cc1ccc(Cn2cc(COC(=O)[C@@H](Cc3cn(Cc4ccc(C)cc4)nn3)NC(=O)OCc3ccccc3)nn2)cc1 | MTCC 183 | MIC | - | 19.6 µM
CCC(C)n1ncn(-c2ccc(N3CCN(c4ccc(OC[C@H]5CO[C@](Cn6cncn6)(c6ccc(Cl)cc6Cl)O5)cc4)CC3)cc2)c1=O | - | Mean MIC80 | - | 3.81 µg/mL
CC(C)(C)COC(=O)N[C@H](Cc1cn(Cc2cccc([N+](=O)[O-])c2)nn1)C(=O)OCc1cn(Cc2cccc([N+](=O)[O-])c2)nn1 | MTCC 183 | MIC | - | 18.4 µM
CC(n1ncnn1)C(O)(Cn1cncn1)c1ccc(F)cc1 | TA | MIC | - | >100 µg/mL
CCCN(CCC)C(=S)N/N=C/c1ccc([N+](=O)[O-])o1 | - | MIC | - | 40 µg/mL
CC(CCCCCCON1C(N)=NC(N)=NC12CCCCC2)c1ccccc1 | - | MIC | - | >60 µg/mL
C[C@@H](n1cnnn1)[C@](O)(Cn1cncn1)c1ccc(F)cc1F | TA | MIC | - | >100 µg/mL
C[C@H](n1ccnn1)[C@@](O)(Cn1cncn1)c1ccc(F)cc1 | TA | MIC | - | 100 µg/mL
O=C(N/N=C/c1ccc([N+](=O)[O-])o1)N1CCCC1 | - | MIC | - | 100 µg/mL
CC(C)(C)c1ccc(CC(Cc2ccc(-c3ccccc3)cc2)n2ccnc2)cc1 | - | MFC | - | >100 µM
O=[N+]([O-])c1ccc(/C=N/NC(=S)N2CCCCC2)o1 | - | MIC | - | 40 µg/mL
C[C@H](n1cnnn1)[C@@](O)(Cn1cncn1)c1ccc(F)cc1F | TA | MIC | - | >100 µg/mL
Cc1cccc(Cn2cc(COC(=O)[C@@H](Cc3cn(Cc4cccc(C)c4)nn3)NC(=O)OCc3ccccc3)nn2)c1 | MTCC 183 | MIC | - | 9.8 µM
Cc1c(O)cccc1C(=O)N[C@@H](CSc1ccccc1)[C@H](O)CN1C[C@H]2CCCC[C@H]2C[C@H]1C(=O)NC(C)(C)C | I177A | MIC | - | 64 µg/mL
CCC(C)n1ncn(-c2ccc(N3CCN(c4ccc(OC[C@H]5CO[C@](Cn6cncn6)(c6ccc(Cl)cc6Cl)O5)cc4)CC3)cc2)c1=O | TIMM3317 (azole-resistant) | MIC90 | - | >51 µg/mL
C[C@H](n1ccnn1)[C@@](O)(Cn1cncn1)c1ccccc1F | TA | MIC | - | >100 µg/mL
Fc1ccc(CC(Cc2ccc(-c3ccccc3)cc2)n2ccnc2)c(F)c1 | - | MIC | - | ≥5.5 µM
C[C@@H](n1ccnn1)[C@@](O)(Cn1cncn1)c1ccccc1F | IFO 0583 | MIC | - | >100 µg/mL
C=CCSS(=O)CC=C | Clinical Isolate 3064 | MIC50 | broth dilution | 0.78 µg/mL
CCC(C)CC(C)CCCCCCCCC(=O)N[C@H]1C[C@@H](O)[C@H](NCCN)NC(=O)[C@@H]2[C@@H](O)CCN2C(=O)[C@H]([C@H](O)CCN)NC(=O)[C@H]([C@H](O)[C@@H](O)c2ccc(O)cc2)NC(=O)[C@@H]2C[C@@H](O)CN2C(=O)[C@H]([C@@H](C)O)NC1=O | 2453 strains | MIC90 | - | 0.25 µg/mL
CC(n1nccn1)C(O)(Cn1cncn1)c1ccc(Cl)cc1 | TA | MIC | - | 50 µg/mL
Clc1ccc(CC(Cc2ccc(-c3ccccc3)cc2)n2ccnc2)c(Cl)c1 | - | MIC | - | 8 µM
C[C@H](n1ccnn1)[C@@](O)(Cn1cncn1)c1ccc(F)cc1F | TA | MIC | - | >100 µg/mL
CC(n1ncnn1)C(O)(Cn1cncn1)c1ccccc1F | TA | MIC | - | >100 µg/mL
C[C@H]1[C@H](O)[C@@H](C)/C=C/C=C/C=C/C=C/C=C/C=C/C=C/[C@H](O[C@@H]2O[C@H](C)[C@@H](O)[C@H](N)[C@@H]2O)C[C@@H]2O[C@](O)(C[C@@H](O)C[C@@H](O)CC[C@H](O)[C@@H](O)C[C@@H](O)CC(=O)O[C@H]1C)C[C@H](O)[C@H]2C(=O)O | ATCC 90028 | MIC90 | - | 0.2 µg/mL
CC(n1ncnn1)C(O)(Cn1cncn1)c1ccc(Cl)cc1 | TA | MIC | - | >100 µg/mL
C[C@@H](N1CCc2nc(-c3ccco3)sc2C1)[C@](O)(C[n+]1cnc[nH]1)c1ccc(F)cc1F | Y0109 | MIC | - | 0.25 µg/mL
O=C(N[C@H](Cc1cn(Cc2ccccc2[N+](=O)[O-])nn1)C(=O)OCc1cn(Cc2ccccc2[N+](=O)[O-])nn1)OCc1ccccc1 | MTCC 183 | MIC | - | 8.9 µM
CC(n1nccn1)C(O)(Cn1cncn1)c1ccccc1F | TA | MIC | - | >100 µg/mL
Cc1ccc(Cn2cc(COC(=O)[C@@H](Cc3cn(Cc4ccc(C)cc4)nn3)NC(=O)OCC(C)(C)C)nn2)cc1 | MTCC 183 | MIC | - | 10.1 µM
CCN(CC)C(=S)N/N=C/c1ccc([N+](=O)[O-])o1 | - | MIC | - | 40 µg/mL
CCC(C)CC(C)CCCCCCCCC(=O)N[C@H]1C[C@@H](O)[C@H](NCCN)NC(=O)[C@@H]2[C@@H](O)CCN2C(=O)[C@H]([C@H](O)CCN)NC(=O)[C@H]([C@H](O)[C@@H](O)c2ccc(O)cc2)NC(=O)[C@@H]2C[C@@H](O)CN2C(=O)[C@H]([C@@H](C)O)NC1=O | MY1055 | MIC | - | 0.5 µg/mL
Fc1ccccc1CC(Cc1ccc(-c2ccccc2)cc1)n1ccnc1 | - | MFC | - | 19 µM
CC(C)(C)COC(=O)N[C@H](Cc1cn(Cc2ccccc2[N+](=O)[O-])nn1)C(=O)OCc1cn(Cc2ccccc2[N+](=O)[O-])nn1 | MTCC 183 | MIC | - | 18.4 µM
Clc1ccc(CN(Cc2ccc(-c3ccccc3)cc2)n2ccnc2)c(Cl)c1 | - | MFC | - | 6.2 µM
CCC(C)CC(C)CCCCCCCCC(=O)N[C@H]1C[C@@H](O)[C@H](NCCN)NC(=O)[C@@H]2[C@@H](O)CCN2C(=O)[C@H]([C@H](O)CCN)NC(=O)[C@H]([C@H](O)[C@@H](O)c2ccc(O)cc2)NC(=O)[C@@H]2C[C@@H](O)CN2C(=O)[C@H]([C@@H](C)O)NC1=O | CLY538 | MIC | - | 0.25 µg/mL
Clc1ccc(COC(Cn2ccnc2)c2ccc(Cl)cc2Cl)cc1 | - | MIC | - | 2.24 µg/mL
CC1(C)N=C(N)N=C(N)N1OCc1cccc(-c2cccc(CON3C(N)=NC(N)=NC3(C)C)c2)c1 | - | MIC | - | 60 µg/mL

A second listing of 3 rows from above:

SMILES,strain,measure,method,value
C[C@@H](n1ccnn1)[C@@](O)(Cn1cncn1)c1ccccc1F,IFO 0583,MIC,-,>100 µg/mL
C[C@H](n1cnnn1)[C@@](O)(Cn1cncn1)c1ccc(F)cc1F,TA,MIC,-,>100 µg/mL
CC(n1nccn1)C(O)(Cn1cncn1)c1ccccc1F,TA,MIC,-,>100 µg/mL

An empty or dashed field is not shown. A number after MIC or MFC names an inhibition level or a share of isolates.